# According to patent US8772197B2, “Compositions for chemical and biological defense” (dated 2014):
# Tested on: Pseudomonas aeruginosa (ATCC strain 15152)
# Assay: Bactericidal activity of magnetic particles against Pseudomonas aeruginosa
# Conditions: particles suspended at 3 wt % (1 mL + 2 mL bacterial suspension); chlorhexidine 0.2 wt % final; 10 min contact, 37° C.
structure (smiles),measurement,value
[H]/N=C(\N/C(=N/[H])NCCCCCCNC(=N)NC(=N)Nc1ccc(Cl)cc1)Nc1ccc(Cl)cc1,Bacterial colonies,Not detected
